Compound potency records, mixed from different reports. Data source: NIAID ChemDB in PubChem.

All rows: tests in culture; species: HIV-1; read-out: inhibition

Neighbouring rows are from separate reports.

| structure | strain | mutations | cells | read by | conditions | tested at | result |
|---|---|---|---|---|---|---|---|
| CCCCOC(=O)c1ccc(NC(=O)NCCc2ccccc2)cc1 |  |  | MT-4 | cytopathic effect / XTT |  | 1 µg/mL | 0% |
| CCOCn1c2c(c(=O)[nH]c1=O)CCCc1ccccc1-2 | IIIB |  | C8166 |  |  | 5 µM | 36% |
| COc1c(C)c2c(c(O)c1C/C=C(\C)CCC(=O)O)C(=O)OC2 | SF162 |  | PBL(CD4+) + PBL | RT activity |  | 1 µM | 92% |
| COc1ccc(CCNC(=S)Nc2nccs2)cc1OC |  |  | MT-4 | cytopathic effect / XTT |  | 10 µg/mL | 54–58% |
| c1ccc2c(-c3ccc(-c4ccc(-c5ccc(-c6cccc7ccccc67)s5)c5ccccc45)s3)cccc2c1 | IIIB |  | C8166 | p24 / ELISA / antigen |  | 1 µM | 45.45% |
| N#Cc1csc(NC(=O)NCCc2ccccc2)n1 |  |  | MT-4 | cytopathic effect / XTT |  | 1 µg/mL | 51–63% |
| Nc1nc(NC2CC2)c2ncn([C@H]3C=C[C@@H](CO)C3)c2n1 | SF162 |  | MDM + PBMC | p24 |  | 0.5 µM | 40% |
| Cc1cn([C@H]2C[C@H](N=[N+]=[N-])[C@@H](COC(=O)C3=CN(C)C=CC3)O2)c(=O)[nH]c1=O | CD 451 |  | PHA-PBL + PBL | p24 |  | 5 µM | 99.9% |
| CO[C@H]1C[C@@H]2CC[C@@H](C)[C@@](O)(O2)C(=O)C(=O)N2CCCC[C@H]2C(=O)O[C@H]([C@H](C)C[C@@H]2CC[C@@H](O)[C@H](OC)C2)CC(=O)[C@H](C)/C=C(\C)[C@@H](O)[C@@H](OC)C(=O)[C@H](C)C[C@H](C)/C=C/C=C/C=C/1C | SF162 R5 |  | Macrophage + Monocytes/macrophages | p24 |  | 0.00001 µM | 45% |
| C=CC(C)(/C=C\c1ccc(O)cc1)c1ccc(O)cc1.NC(=O)NO | 6366 |  | Macrophage | p24 |  | 0.00054 µM | 90% |
| O[C@H]1CN(Cc2ccccc2)CC[C@@]1(O)c1ccccc1 | BRU |  | CEM + CEM-SS | cytopathic effect |  | 100 µg/mL | 42.3% |
| CN1C(=O)[C@@H](Cc2ccccc2)NC1=S |  |  | MT-4 | RT activity |  | 1 µg/mL | 13% |
| CCCCC/C=C/C=C1/C(=O)C=CC1C/C=C\CCCC(=O)O |  |  | U-937 | p24 / ELISA |  | 0.8 µM | 53% |
| COc1ccc(OCC2OC2COC(=O)c2ccc(O)c(OC)c2)cc1 |  |  | CEM-GFP | GFP / fluorescence |  | 5 µM | 1% |
| CC(C)[C@H](NC(=O)[C@]12CCC(C)(C)C[C@H]1C1=CC[C@@H]3[C@@]4(C)C[C@@H](O)[C@H](O)C(C)(C)[C@@H]4CC[C@@]3(C)[C@]1(C)CC2)C(=O)O | pNL4-3 |  | MT-2 | p24 / ELISA |  | 10 µM | -2.8% |
| O=C1CCC(N2C(=O)c3ccccc3C2=O)C(=O)N1 | JR-FL |  | Macrophage | RT activity |  | 50 µg/mL | 60% |
| C=CCOC(=O)N1C=CC(C#N)C(C(C)=O)=C1 | IIIB |  | MOLT-3 | syncytia |  | 50 µM | 0% |
| O=C(NCCc1ccccc1)Nc1nc2ccc(Cl)cc2s1 |  |  | MT-4 | RT activity |  | 1 µg/mL | 1% |
| c1cc(CNCCCNC2CCCCC2)cc(CNc2nc(N3CCNCC3)nc3nc[nH]c23)c1 | IIIB |  | TZM-bl | luciferase |  | 10 µM | 14% |
| CCC(C)[C@H](NC(=O)CNC(C)(C)c1cccc(F)c1)C(=O)N[C@@H](Cc1ccccc1)[C@H](O)CN(CC(C)C)S(=O)(=O)c1ccc2ncccc2c1 | RF |  | MT-2 |  |  | 90 µM | <1% |
| O=C(NCCc1ccccc1)Nc1ncco1 |  |  | MT-4 | cytopathic effect / XTT |  | 1 µg/mL | 0% |
| CCCN1CC[C@H](O)[C@@H](O)C1 | BRU |  | CEM + CEM-SS | cytopathic effect |  | 10 µg/mL | 10.3% |
| N#CC1C=Cc2c(ccc3ccccc23)N1C(=O)c1ccc(Cl)cc1 | IIIB |  | MOLT-3 | syncytia |  | 50 µM | 0% |
| NC(=O)n1c(O)c(C(=O)c2cccs2)c2cc(Cl)ccc21 | MN |  | Jurkat cells | p24 |  | 25 µM | 92% |
| O=C(Cc1ccccc1)Nn1c(-c2ccccc2)nc2ccccc2c1=O | RF |  | CEM + CEM-SS | cytopathic effect / XTT |  | 20 µM | 18% |
| CC1(C)CC[C@]2(C(=O)O)CC[C@]3(C)C(=CC[C@@H]4[C@@]5(C)C[C@@H](O)[C@H](O)C(C)(C)[C@@H]5CC[C@]43C)[C@@H]2C1 | pNL4-3 |  | MT-2 | p24 / ELISA |  | 25 µM | 93.3% |
| OCCN1CC[C@H](O)[C@@H](O)C1 | BRU |  | CEM + CEM-SS | cytopathic effect |  | 10 µg/mL | 48% |
| Nc1ncnc2c1ncn2C1CC(CO)C1 | IIIB |  | ATH8 | cytopathic effect |  | 20 µM | 0% |
| C=CCCOC(=O)N1C=CC(C#N)C(C(C)=O)=C1 | IIIB |  | MOLT-3 | syncytia |  | 50 µM | 0% |
| O=C(NCCc1ccccc1)Nc1nncs1 |  |  | MT-4 | cytopathic effect / XTT |  | 1 µg/mL | 100% |
| O=c1oc2cc(O)c(O)cc2c(O)c1-c1coc2c1c(=O)oc1cc(O)c(O)cc12 | IIIB |  | MT-4 | MTT |  | 5 µM | 50% |
| CCCCN1CC[C@H](O)[C@@H](O)C1 | BRU |  | CEM + CEM-SS | cytopathic effect |  | 10 µg/mL | 15.3% |
| CC(C)CN(C[C@@H](O)[C@H](Cc1ccccc1)NC(=O)[C@@H](NC(=O)CNC(C)(C)c1cccc(F)c1)C(C)(C)C)S(=O)(=O)c1ccc2ncccc2c1 | RF |  | MT-2 |  |  | 90 µM | <1% |
| CC1(C)CC[C@]2(C(=O)NCCCC(=O)O)CC[C@]3(C)C(=CC[C@@H]4[C@@]5(C)C[C@@H](O)[C@H](O)C(C)(C)[C@@H]5CC[C@]43C)[C@@H]2C1 | pNL4-3 |  | MT-2 | p24 / ELISA |  | 10 µM | -26.4% |
| CCOC(=O)/C=C/c1ccc(OC(=O)CCC(=O)Oc2c(C)c(C)c3c(c2C)CC[C@@](C)(CCC[C@H](C)CCC[C@H](C)CCCC(C)C)O3)cc1 |  |  | U1/HIV-1 (TNF-alpha stimulated) + U1 |  |  | 1 µM | 22% |
| CC(C)CN(C[C@@H](O)[C@H](Cc1ccccc1)NC(=O)[C@@H](NC(=O)CCNC(C)(C)c1ccccc1)C(C)(C)C)S(=O)(=O)c1ccc(N)cc1 | RF |  | MT-2 |  |  | 90 µM | <1% |
| COc1ccc(C(CC(N)=O)N2C(=O)c3ccccc3C2=O)cc1OC | JR-FL |  | Macrophage | RT activity |  | 50 µg/mL | 49% |
| Cc1ccc(-c2ccc3c(c2)C=C(C(=O)Nc2ccc(C[N+](C)(C)C4CCOCC4)cc2)CCC3)cc1 | COT9 CLADE C |  | PBMC | p24 |  | 1 µM | 87.3% |
| CC(C)[C@H](NC(=O)CCCNC(=O)[C@]12CCC(C)(C)C[C@H]1C1=CC[C@@H]3[C@@]4(C)C[C@@H](O)[C@H](O)C(C)(C)[C@@H]4CC[C@@]3(C)[C@]1(C)CC2)C(=O)O | pNL4-3 |  | MT-2 | p24 / ELISA |  | 10 µM | 33.8% |
| Nc1ccn([C@H]2CC[C@@H](CO)O2)c(=O)n1 | LAI |  | Macrophage + Macrophages | RT activity |  | 1 µM | 82.7% |
| CCc1nc2cc3ccccc3cc2cc1C(=O)N[C@@H](C/C=C/C[C@H](NC(=O)c1cc2cc3ccccc3cc2nc1CC)C(=O)N1CCC[C@H]1C(=O)N[C@@H](Cc1ccccc1)C(=O)NCCCN)C(=O)N1CCC[C@H]1C(=O)N[C@@H](Cc1ccccc1)C(=O)NCCCN |  |  | TZM-bl + HEK293T | luciferase | pseudotyped | 40 µM | >90% |
| C[C@]1(O)CN(Cc2ccccc2)CC[C@@H]1O | BRU |  | CEM + CEM-SS | cytopathic effect |  | 100 µg/mL | 6.2% |
| C=CCCOC(=O)N1c2ccc3ccccc3c2C=CC1C#N | IIIB |  | MOLT-3 | syncytia |  | 50 µM | 0% |
| CC1(C)CC[C@]2(C(=O)NCCCCCCCCCCC(=O)O)CC[C@]3(C)C(=CC[C@@H]4[C@@]5(C)C[C@@H](O)[C@H](O)C(C)(C)[C@@H]5CC[C@]43C)[C@@H]2C1 | pNL4-3 |  | MT-2 | p24 / ELISA |  | 10 µM | 43.3% |
| C=C(C)[C@@H]1CC[C@]2(C(=O)NCCCCCCCC(=O)N[C@@H](CC(C)C)[C@@H](O)CC(=O)O)CC[C@]3(C)[C@H](CC[C@@H]4[C@@]5(C)CC[C@H](O)C(C)(C)[C@@H]5CC[C@]43C)[C@@H]12 | LAI-R(GP41-R22A) | R22A | HeLa P4 + HeLa | syncytia |  | 10 µM | >99% |
| O[C@H]1CCNC[C@@H]1O | BRU |  | CEM + CEM-SS | cytopathic effect |  | 10 µg/mL | 82% |
| O=C(NCCc1ccccc1)Nc1nc2ccccc2s1 |  |  | MT-4 | cytopathic effect / XTT |  | 0.1 µg/mL | 0% |
| CCN(CC)C(=S)S | LAV |  | H9 | p24 |  | 0.0000025 µg/mL | 25% |
| CC(=O)N1CCC(C(=O)N(CCCN2CCC(Cc3ccc(C(N)=O)cc3)CC2)c2ccc(C)c(Cl)c2)CC1 | CTV Clinical isolates |  | PBMC | p24 |  | 0.005 µM | 90% |

Repeating the final 3 entries:

{"structure": "O=C(NCCc1ccccc1)Nc1nc2ccccc2s1", "cells": "MT-4", "read by": "cytopathic effect / XTT", "tested at": "0.1 µg/mL", "result": "0%"}
{"structure": "CCN(CC)C(=S)S", "strain": "LAV", "cells": "H9", "read by": "p24", "tested at": "0.0000025 µg/mL", "result": "25%"}
{"structure": "CC(=O)N1CCC(C(=O)N(CCCN2CCC(Cc3ccc(C(N)=O)cc3)CC2)c2ccc(C)c(Cl)c2)CC1", "strain": "CTV Clinical isolates", "cells": "PBMC", "read by": "p24", "tested at": "0.005 µM", "result": "90%"}

Percent inhibition refers to the dose given; in toxicity tests it is the harm to the cells. a–b is a range or a potency band. Blank or dashed fields: not listed here.